Target: Ca channel (Type N) (Homo sapiens, UniProt Q00975)
Test: Receptor binding panel: Ca channel (Type N)

The chains behind the UniProt entries cited, without tags or fusion partners.
UniProt Q00975, whole entry: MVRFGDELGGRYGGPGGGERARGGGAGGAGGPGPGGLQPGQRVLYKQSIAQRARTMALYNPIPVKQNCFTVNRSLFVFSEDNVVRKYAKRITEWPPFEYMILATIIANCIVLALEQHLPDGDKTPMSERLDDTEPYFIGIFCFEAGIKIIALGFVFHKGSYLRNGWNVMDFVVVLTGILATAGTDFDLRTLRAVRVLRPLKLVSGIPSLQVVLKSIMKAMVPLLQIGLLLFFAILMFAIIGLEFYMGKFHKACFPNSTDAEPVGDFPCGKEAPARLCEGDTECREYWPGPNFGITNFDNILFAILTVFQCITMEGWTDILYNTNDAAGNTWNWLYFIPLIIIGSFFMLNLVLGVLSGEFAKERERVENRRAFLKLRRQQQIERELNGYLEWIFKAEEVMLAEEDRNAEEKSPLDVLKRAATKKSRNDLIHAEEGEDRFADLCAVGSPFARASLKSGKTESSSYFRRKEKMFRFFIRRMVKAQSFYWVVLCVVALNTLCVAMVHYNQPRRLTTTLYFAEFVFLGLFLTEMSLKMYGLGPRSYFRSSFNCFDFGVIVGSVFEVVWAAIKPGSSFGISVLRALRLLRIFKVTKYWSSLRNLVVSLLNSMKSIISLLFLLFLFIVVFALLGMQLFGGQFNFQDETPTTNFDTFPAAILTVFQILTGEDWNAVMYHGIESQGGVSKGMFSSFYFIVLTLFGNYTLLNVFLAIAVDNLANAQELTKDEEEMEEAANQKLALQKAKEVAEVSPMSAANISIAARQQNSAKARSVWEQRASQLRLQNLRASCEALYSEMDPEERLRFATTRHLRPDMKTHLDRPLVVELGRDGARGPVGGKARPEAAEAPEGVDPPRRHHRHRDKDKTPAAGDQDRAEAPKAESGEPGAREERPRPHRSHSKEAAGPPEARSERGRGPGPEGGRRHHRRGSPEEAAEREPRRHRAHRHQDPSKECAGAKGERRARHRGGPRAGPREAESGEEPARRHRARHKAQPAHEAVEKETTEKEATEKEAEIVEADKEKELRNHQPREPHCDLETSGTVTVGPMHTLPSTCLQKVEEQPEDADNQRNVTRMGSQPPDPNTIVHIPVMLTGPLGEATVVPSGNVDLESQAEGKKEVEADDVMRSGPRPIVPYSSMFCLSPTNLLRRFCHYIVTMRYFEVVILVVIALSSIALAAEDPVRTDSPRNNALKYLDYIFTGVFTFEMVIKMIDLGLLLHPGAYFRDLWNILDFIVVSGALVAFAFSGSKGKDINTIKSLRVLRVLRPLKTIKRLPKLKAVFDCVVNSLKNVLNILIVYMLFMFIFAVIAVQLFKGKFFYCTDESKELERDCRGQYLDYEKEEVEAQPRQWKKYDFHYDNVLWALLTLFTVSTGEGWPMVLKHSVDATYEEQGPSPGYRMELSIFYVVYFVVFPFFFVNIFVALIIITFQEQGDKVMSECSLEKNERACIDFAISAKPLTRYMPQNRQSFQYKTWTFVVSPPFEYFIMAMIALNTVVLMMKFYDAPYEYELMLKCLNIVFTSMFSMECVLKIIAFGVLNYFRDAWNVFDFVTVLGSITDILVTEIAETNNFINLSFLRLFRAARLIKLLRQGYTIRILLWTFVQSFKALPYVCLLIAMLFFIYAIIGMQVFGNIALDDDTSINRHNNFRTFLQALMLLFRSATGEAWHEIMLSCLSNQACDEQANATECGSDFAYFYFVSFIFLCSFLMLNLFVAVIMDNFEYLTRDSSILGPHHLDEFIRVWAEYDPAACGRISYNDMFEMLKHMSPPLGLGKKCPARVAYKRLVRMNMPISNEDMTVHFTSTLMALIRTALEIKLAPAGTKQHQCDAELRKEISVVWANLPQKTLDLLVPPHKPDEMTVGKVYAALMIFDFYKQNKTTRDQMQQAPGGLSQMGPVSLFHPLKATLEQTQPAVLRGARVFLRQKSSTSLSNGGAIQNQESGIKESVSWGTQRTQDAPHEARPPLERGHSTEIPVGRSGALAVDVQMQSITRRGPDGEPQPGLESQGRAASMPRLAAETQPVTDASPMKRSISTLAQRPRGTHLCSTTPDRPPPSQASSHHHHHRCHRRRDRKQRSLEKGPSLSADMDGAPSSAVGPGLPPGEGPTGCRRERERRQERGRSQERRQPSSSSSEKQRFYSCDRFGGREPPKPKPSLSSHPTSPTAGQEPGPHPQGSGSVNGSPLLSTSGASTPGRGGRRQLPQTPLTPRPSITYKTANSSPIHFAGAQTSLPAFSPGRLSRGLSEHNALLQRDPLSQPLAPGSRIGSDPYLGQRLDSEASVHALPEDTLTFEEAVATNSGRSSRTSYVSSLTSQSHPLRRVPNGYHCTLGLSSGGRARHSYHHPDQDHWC

In the case of ω-Conotoxin GVIA [reference compound], the “Inhibition (%)” value is reported as 99.35%.

Source: patent US10335503B2, “Compound that specifically binds to AMPA receptor” (Public University Corporation Yokohama City University, priority 2015, dated 2019)
